The results in this text go back to patent US7868037B2 (PTC Therapeutics, Inc., priority 2004, dated 2011).

Molecules are shown by their SMILES.

In general, IC50 refers to the concentration that inhibits the measured activity by half. A higher IC50 goes with weaker potency in that assay.

This test relates to HCV-PV chimera.

Consider `CCn1c(C#Cc2ccc(NC(C)=O)cc2)c(C#N)c2ccc(OC)cc21` [Compound 138, N-[4-(3-cyano-1-ethyl-6-methoxy-1H-indol-2-ylethynyl)-phenyl]-acetamide], for which the IC50 is under 500 nM.
